A mixed list of measured activities; the numbers were collected in NIAID ChemDB.

Shared fields: growth or infection tests; species: Human cytomegalovirus; read by: cytopathic effect; read-out: EC50

ECn is the concentration giving n% inhibition of infection, replication or growth. Rows are shuffled and stem from different studies.

SMILES	strain or isolate	cell line	value
O=[N+]([O-])c1cc([C@H]2C[C@H](O)[C@@H](CO)O2)c(F)cc1F	AD169	HEL	118 µM
CCCCCC#Cc1cn(S(=O)(=O)c2ccc(C)cc2)c(=O)[nH]c1=O	AD169	HEL	>80 µM
OC[C@H]1O[C@@H](c2cc(Br)c(F)cc2F)C[C@@H]1O	AD169	HEL	>200 µM
CCCCCCCCCCC#Cc1cn(S(=O)(=O)c2ccc(C)cc2)c(=O)[nH]c1=O	DAVIS	HEL	>80 µM
Nc1nc2c(ncn2COC(CO)CO)c(=O)[nH]1	DAVIS	HEL	3.8 µM
COc1cc(F)c([C@H]2C[C@H](O)[C@@H](CO)O2)cc1[N+](=O)[O-]	DAVIS	HEL	>200 µM
N#CC1C(c2ccc(Cl)cc2)Nc2ccccc2S1(=O)=O	DER530 (GCV CDV-resistant)	HEL	5.6 µg/mL
CCCCC#Cc1cn(S(=O)(=O)c2ccc(C)cc2)c(=O)[nH]c1=O	DAVIS	HEL	>16 µM
OC[C@H]1O[C@H](c2ccc(F)cc2F)C[C@@H]1O	DAVIS	HEL	>200 µM
CC(C)(C)c1nc2ccccn2c1NC(=O)Nc1ccccc1	AD169	HEL	>50 µg/mL
Nc1nc2ncn(/C=C3\C(F)C3(CO)CO)c2c(=O)[nH]1	AD169	HFF	>300 µM
Cc1oc(NC(=O)C(F)(F)F)c(S(=O)(=O)c2ccc(Cl)cc2)c1C	AD169	HEL	>5 µg/mL
Cc1cn(C(CF)CCCO)c(=O)[nH]c1=O	AD169	HEL	>50 µg/mL
OC[C@H]1O[C@H](c2cc(F)c(F)cc2F)C[C@@H]1O	AD169	HEL	>200 µM
Cc1cn(CCCC(O)CF)c(=O)[nH]c1=O	AD169	HEL	>50 µg/mL
N#CC1C(c2ccc(Cl)cc2)Nc2sccc2S1(=O)=O	DAVIS	HEL	9 µg/mL
N#Cc1cc([C@H]2C[C@H](O)[C@@H](CO)O2)c(F)cc1F	DAVIS	HEL	>200 µM
O=c1[nH]c(=O)n([C@H]2C[C@H](O)[C@@H](CO)O2)cc1/C=C/Br	DAVIS	HEL	>50 µM
OC[C@H]1O[C@@H](c2ccc(F)cc2F)C[C@@H]1O	AD169	HEL	>200 µM
Cc1nc2ccccn2c1NC(=S)Nc1ccccc1	DAVIS	HEL	10 µg/mL
CCCCCCC#Cc1cn(S(=O)(=O)c2ccc(C)cc2)c(=O)[nH]c1=O	DAVIS	HEL	>16 µM
Cc1cc([C@@H]2C[C@H](O)[C@@H](CO)O2)c(Cl)cc1F	DAVIS	HEL	>200 µM
CCCCc1cc2cnc(=O)[nH]c2o1	DAVIS	HEL	>400 µM
Nc1ncnc2c1ncn2C(CF)CCCO	AD169	HEL	>50 µg/mL
CCCCCCC#Cc1c[nH]c(=O)[nH]c1=O	DAVIS	HEL	>80 µM
Cc1c(S(=O)(=O)c2ccc(Cl)cc2)c(NC(=O)C(F)(F)F)n(Cc2ccc(Cl)cc2)c1C	AD169	HEL	0.5 µg/mL
CCCCCCCC/C=C/CCCCCCCC(=O)O	DAVIS	HEL	>100 µM
CCCCCCCC#Cc1c[nH]c(=O)[nH]c1=O	AD169	HEL	>80 µM

3 of the rows above, restated:

SMILES	strain or isolate	cell line	value
CCCCCCC#Cc1c[nH]c(=O)[nH]c1=O	DAVIS	HEL	>80 µM
Cc1c(S(=O)(=O)c2ccc(Cl)cc2)c(NC(=O)C(F)(F)F)n(Cc2ccc(Cl)cc2)c1C	AD169	HEL	0.5 µg/mL
COc1cc(F)c([C@H]2C[C@H](O)[C@@H](CO)O2)cc1[N+](=O)[O-]	DAVIS	HEL	>200 µM